This is an account of results in article PMC11672137, “High-Affinity Lectin Ligands Enable the Detection of Pathogenic Pseudomonas aeruginosa Biofilms: Implications for Diagnostics and Therapy” (JACS Au, 2024).

By UniProt entry, the sequences of proteins in these tests, tags left out. Residues count along the entry.
UniProt Q05097, whole entry: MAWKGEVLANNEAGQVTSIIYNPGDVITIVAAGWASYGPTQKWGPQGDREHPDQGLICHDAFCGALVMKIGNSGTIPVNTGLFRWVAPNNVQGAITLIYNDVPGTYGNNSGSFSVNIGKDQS
UniProt Q9HYN5, 2-115 limits assumed: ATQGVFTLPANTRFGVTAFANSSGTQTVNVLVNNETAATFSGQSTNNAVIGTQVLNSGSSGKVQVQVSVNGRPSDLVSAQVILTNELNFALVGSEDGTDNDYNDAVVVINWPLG

The structures given here were assigned with low confidence; some may be wrong.

In one experiment the target is LecA (Pseudomonas aeruginosa, UniProt Q05097). The experiment in a line: Competitive binding assay based on fluorescence polarization, LecA. The conditions noted are these: LecA 20 µM, reporter ligand S38, 2% DMSO. The protocol: Next, binding of the optimized divalent ligand 17 and its synthetic precursor 16 to LecA was evaluated by fluorescence polarization-based (FP) assays,[47] SPR, and ITC. […] Therefore, fluorescent ligand 17 was analyzed in a direct binding experiment by FP. […] The dissociation constants for 16 were 47.2 ± 11.3 nM (ITC) and 47.8 ± 44.1 nM (steady-state SPR), while for 17, the values were 64.1 ± 31.1 nM and 79.3 ± 24.9 nM (steady-state SPR). For the SPR experiments, Kd was also determined by single-cycle kinetic analysis resulting in approximately five times higher affinity, but the data have limited reliability due to suboptimal fit for the kinetic curves (Figures S13B and S14).[58]−[60] […]
137 mM NaCl, 2.6 mM KCl at pH 7.4 supplemented with 1 mM CaCl2). Protein concentration was determined by UV spectroscopy at 280 nm using a molar extinction coefficient of 27 960 M-1 cm-1 for LecA and 6 990 M-1 cm-1 for LecB.
All synthesized alkyne precursors (S5m, S5p, S6m, S6p, S11, 25, S16, S22 and S24) were analysed in the previously established competitive binding assays based on fluorescence polarization (Figure S2).18,19 Galactose-based compounds (S5m, S5p, S6m, S6p, S11) were evaluated against LecA and C-glycoside-based compounds […] and S16 against LecB. […]
PheraStar FS plate reader (BMG Labtech GmbH, Germany) with excitation filters at 485 nm and emission filters at 535 nm. […]

Another experiment has as its target LecB (Pseudomonas aeruginosa, UniProt Q9HYN5). The experiment in a line: Competitive binding assay based on fluorescence polarization, LecB. To be noted: reporter ligand S39, less than 0.5% DMSO. (Polarisation of emitted light reports the rotation of a fluorescent probe.)

On to `C#CCNc1ccc(S[C@@H]2OC[C@@H](O)[C@H](O)[C@H]2O)cc1` [S20], for which the “IC50 (competitive binding, FP)” value on LecA and on LecB was “n.b” in each case.
